“And” between values parts separate entries of the source, which are not always exact repeats. Equal values may be shown once.
What was measured:
[1] = system: HSV-1 (29R strain); assay: Viral plaque number reduction assay, HSV-1 29R strain; assay type: cell-based, Herpes Simplex Virus type 1; conditions: selective index = CC50 (Vero)/IC50
Procedure: (§1) Firstly, the cytotoxicity of compounds 1–6 was determined by SRB assay as described above. HSV-1 (KOS and 29R strains, which are sensitive and resistant to acyclovir, respectively, Faculty of Pharmacy, University of Rennes I, Rennes, France) were propagated in the permissive Vero cells. Viral stocks were titrated as based on plaque-forming units (PFU), counted by plaque assay as previously described, and stored at −80 °C until used. To perform the anti-HSV-1 screening, the viral plaque number reduction assay was used as described previously by Boff et al.. Briefly, confluent Vero cell monolayers (2.5 × 10^5 cells per well) were infected with approximately 100 PFU of each virus strain for 1 h at 37 °C. Treatments were performed by adding non-cytotoxic concentrations of the compounds after viral infection (post-infection treatment). Cells were then washed with phosphate-buffered saline (PBS) and overlaid with MEM containing 1.5% carboxymethylcellulose (CMC; Sigma-Aldrich) in the presence or absence of different concentrations of the compounds and incubated for 48 h. Cells were fixed and stained with naphthol blue-black (Sigma-Aldrich), and viral plaques were counted by using a stereomicroscope. […] The ratio between CC50 and IC50 values was calculated to obtain the selectivity index (SI) of each sample. […]

[2] = system: HSV-1 (KOS strain); assay: Viral plaque number reduction assay, HSV-1 KOS strain; assay type: cell-based, Herpes Simplex Virus type 1; conditions: selective index = CC50 (Vero)/IC50
Procedure: as §1

## C=C1C(C)=CCC[C@@H]1[C@@](C)(CCc1ccoc1)[C@@H](C)CC(=O)OC [Compound 2, raspadiene]
[1]
  SI (29R Strain): > 3.0 and >3.33
[2]
  SI (KOS Strain): > 3.0 and >3.07

## COC(=O)[C@@]12C(C)=CCC[C@@H]1[C@@](C)(CCc1ccoc1)[C@@H](C)C[C@H]2O [Compound 4, kerlinic acid methyl ester]
[2]
  SI (KOS Strain): 1.87

From PMC6356680, “Clerodane Diterpenes from the Marine Sponge Raspailia bouryesnaultae Collected in South Brazil” (Marine Drugs, 2019)
